Anti-infective test results gathered from many reports (values: NIAID ChemDB through PubChem).

Shared fields: growth or infection tests; organism: Cryptococcus neoformans

ECn is the concentration giving n% inhibition of infection, replication or growth.

Oc1ccccc1N=Cc1cccc(O)c1O ; measure: MIC ; strain or isolate: 27JF ; read by: broth dilution ; result: 5.7 µg/mL
CC(C(=O)O)N1C(=O)CCSC1c1ccccc1 ; measure: EC50 ; read by: broth dilution ; result: 23.7 µM
COC(=O)[C@H]1[C@@H]2C[C@@H](O[C@@H]3O[C@H](C)[C@@H](O)[C@H](N)[C@@H]3O)/C=C/C=C/C=C/C=C/C=C/C=C/C=C/[C@H](C)[C@@H](O)[C@H](C)[C@H](C)OC(=O)C[C@H](O)C[C@H](O)[C@@H](O)CC[C@H](O)C[C@H](O)C[C@](O)(C[C@@H]1O)O2 ; measure: MIC ; strain or isolate: NCPF 3379 ; result: 0.98 µM
Cc1nc(NCCCCNc2ccnc3cc(Cl)ccc23)nc(-c2ccccc2[N+](=O)[O-])c1C(=O)OC(C)C ; measure: MIC99 ; strain or isolate: WP ; result: 5.7 µg/mL
COc1ccc(-c2c(C#N)c(OC)nc3c2CSc2ccc(Cl)cc2-3)cc1OC ; measure: MIC ; strain or isolate: Farwania ; result: 6 µg/mL
CC[C@@]1(O)C(=O)OCc2c1cc1n(c2=O)Cc2cc3c(CN(C)C)c(O)ccc3nc2-1 ; measure: MIC ; strain or isolate: Clinical isolate (capsule-negative) ; result: >100 µM
COc1ccc2c(c1)C(=O)/C(=C/c1ccc3c(c1)OCO3)CO2 ; measure: MIC ; strain or isolate: Farwania ; result: 12.5 µg/mL
C[C@H]1[C@H](O)[C@@H](C)/C=C/C=C/C=C/C=C/C=C/C=C/C=C/[C@H](O[C@@H]2O[C@H](C)[C@@H](O)[C@H](N)[C@@H]2O)C[C@@H]2O[C@](O)(C[C@@H](O)C[C@@H](O)CC[C@H](O)[C@@H](O)C[C@@H](O)CC(=O)O[C@H]1C)C[C@H](O)[C@H]2C(=O)O ; measure: MIC50 ; strain or isolate: 32 isolates ; result: 0.12 µg/mL
C=C1CO[C@H]2[C@@H](C)OC(OC[C@@]34C[C@H]5[C@H](C)CC[C@@H]5[C@@]5(C=O)C[C@@H]3C=C(C(C)C)[C@@]45C(=O)O)C[C@@H]12 ; measure: MIC50 ; strain or isolate: 15 strains (serotype B) ; result: 1 µg/mL
CC(C)C(=O)CCC[C@H]1CO[C@@](Cn2ccnc2)(c2ccc(F)cc2F)C1 ; measure: MIC ; strain or isolate: A.34144 ; result: 1.56 µg/mL
O=C(O)C(Cc1ccccc1)N1C(=O)CSC1c1ccccc1 ; measure: EC50 ; read by: broth dilution ; result: 24.01 µM
C[C@@H](n1cnc2cc(Cl)ccc2c1=O)[C@](O)(Cn1cncn1)c1ccc(F)cc1F ; measure: MIC ; strain or isolate: Isolate 114.95 ; result: 0.0098 µg/mL
CC(C)C(=O)CCC[C@H]1CO[C@@](Cn2cccc2)(c2ccc(F)cc2F)C1 ; measure: MIC ; strain or isolate: IFM.40092 ; result: >100 µg/mL
N=C(N)c1ccc2nc(-c3ccc(-c4nc5ccc(C(=N)N)cc5[nH]4)[nH]3)[nH]c2c1 ; measure: Geometric mean MIC ; strain or isolate: 9 strains ; result: 0.39 µg/mL
COc1ccccc1-c1c(C#N)c(OC)nc2c1CSc1ccc(Cl)cc1-2 ; measure: MIC ; strain or isolate: 93/V ; result: 25 µg/mL
C[C@H](n1nnc(CCN2CCN(c3ccccn3)CC2)n1)[C@](O)(Cn1cncn1)c1ccc(F)cc1F ; measure: MIC ; strain or isolate: LA314 ; result: 8 µg/mL
COc1ccccc1C1SC(C)C(=O)N1C(Cc1ccccc1)C(=O)O ; measure: EC50 ; read by: broth dilution ; result: 82.64 µM
COc1ccc(C2C(C#N)=C(N)OC3=C2CSc2ccccc23)cc1OC ; measure: MIC ; strain or isolate: 25 ; result: 12.5 µg/mL
C[C@H](n1nnnc1CCN1CCN(c2ccccn2)CC1)[C@](O)(Cn1cncn1)c1ccc(F)cc1F ; measure: MIC ; strain or isolate: LA314 ; result: 4 µg/mL
C[C@@H](c1ncncc1F)[C@](O)(Cn1cncn1)c1ccc(F)cc1F ; measure: MIC ; strain or isolate: CBS 889 ; read by: broth dilution ; result: 0.016 µg/mL
O=C1/C(=C/c2ccc(Cl)cc2)COc2ccccc21 ; measure: MIC ; strain or isolate: 93/V ; result: 12.5 µg/mL
CC(C)C(=N)CCC[C@H]1CO[C@@](Cn2ccnc2)(c2ccc(F)cc2F)C1 ; measure: MIC ; strain or isolate: A.34144 ; result: 100 µg/mL
COc1ccc(/C=C2\CSc3ccccc3C2=O)cc1 ; measure: MIC ; strain or isolate: 93/V ; result: 6 µg/mL
COC1CC2CCC(C)C(O)(O2)C(=O)C(=O)N2CCCCC2C(=O)OC(C(C)CC2CCC(O)C(OC)C2)CC(=O)C(C)/C=C(\C)C(O)[C@@](OC)(N(O)C(=O)OCC(C)C)C(=O)C(C)CC(C)/C=C/C=C/C=C/1C ; measure: MFC ; strain or isolate: TOR1-1 ; result: >100 µg/mL
C[C@H]1[C@H](O)[C@@H](C)/C=C/C=C/C=C/C=C/C=C/C=C/C=C/[C@H](O[C@@H]2O[C@H](C)[C@@H](O)[C@H](N)[C@@H]2O)C[C@@H]2O[C@](O)(C[C@@H](O)C[C@@H](O)CC[C@H](O)[C@@H](O)C[C@@H](O)CC(=O)O[C@H]1C)C[C@H](O)[C@H]2C(=O)O ; measure: MIC50 ; strain or isolate: 5 isolates ; result: 0.25 µg/mL
OC(Cn1cncn1)(Cn1nnc(CCN2CCN(c3cccc(Cl)c3)CC2)n1)c1ccc(F)cc1F ; measure: MIC ; strain or isolate: LA314 ; result: >16 µg/mL
O=[N+]([O-])c1ccc(C=Nc2ccccc2O)cc1 ; measure: MIC ; strain or isolate: LMM 820 ; read by: broth dilution ; result: 16 µg/mL
COC1CC2CCC(C)C(O)(O2)C(=O)C(=O)N2CCCCC2C(=O)OC(C(C)CC2CCC(O)C(OC)C2)CC(=O)C(C)/C=C(\C)C(O)C(OC)C(=O)C(C)C[C@](C)(N(O)C(=O)NN2CCCCC2)/C=C/C=C/C=C/1C ; measure: MIC ; strain or isolate: TOR1-1 ; result: >100 µg/mL
O=C(O)CN1C(=O)CCSC1c1ccccn1 ; measure: EC50 ; read by: broth dilution ; result: 30.27 µM
N#CC1=C(N)OC2=C(CSc3ccccc32)C1c1ccc2c(c1)OCO2 ; measure: MIC ; strain or isolate: Farwania ; result: 12.5 µg/mL
COc1ccc(/C=C2\CSc3ccc(Cl)cc3C2=O)cc1 ; measure: MIC ; strain or isolate: 93/V ; result: 12.5 µg/mL
CC(C(O)(Cn1cncn1)c1ccc(F)cc1F)S(C)(=O)=O ; measure: MIC ; strain or isolate: R718 (AZOLE-R) ; result: 50 µM
C[C@@H](n1ncn(-c2ccc(OCC(F)(F)C(F)F)cc2)c1=O)[C@](O)(Cn1cncn1)c1ccc(F)cc1F ; measure: MFC ; strain or isolate: DUMC 251.86 ; result: >16 µg/mL
Oc1ccccc1N=Cc1ccc(F)cc1 ; measure: MIC ; strain or isolate: LMM 820 ; result: 4 µg/mL
CCCCOc1ccccc1N1CCN(CCc2nnn(CC(O)(Cn3cncn3)c3ccc(F)cc3F)n2)CC1 ; measure: MIC ; strain or isolate: LA314 ; result: 2 µg/mL
N#CC1=C(N)OC2=C(CSc3ccccc32)C1c1ccc(-c2ccccc2)cc1 ; measure: MIC ; strain or isolate: Farwania ; result: 50 µg/mL
NCCNC(=O)C1=Nc2ccc(NC(=O)C3=Nc4ccc(C(=O)Nc5ccc6[nH]c(C(=O)NCCN)cc6c5)cc4C3)cc2C1 ; measure: MFC ; strain or isolate: Serotype C ; result: 2 µg/mL
CCC(C)CC(C)CCCCCCCCC(=O)N[C@H]1C[C@@H](O)[C@H](NCCN)NC(=O)[C@@H]2[C@@H](O)CCN2C(=O)[C@H]([C@H](O)CCN)NC(=O)[C@H]([C@H](O)[C@@H](O)c2ccc(O)cc2)NC(=O)[C@@H]2C[C@@H](O)CN2C(=O)[C@H]([C@@H](C)O)NC1=O ; measure: MIC ; strain or isolate: Isolate 34 (AMB FCZ 5FC-susceptible) ; result: 16 µg/mL
CC(C)C(=O)CCC[C@@H]1CO[C@@](Cn2ccnc2)(c2ccc(F)cc2F)C1 ; measure: MIC ; strain or isolate: IFM.40092 ; result: <0.1 µg/mL
Oc1ccccc1C=Nc1ccccc1O ; measure: MIC99 ; strain or isolate: ATCC 28957 ; result: 4 µg/mL
CC[C@@H]([C@H](C)O)n1ncn(-c2ccc(N3CCN(c4ccc(OC[C@@H]5CO[C@@](Cn6cncn6)(c6ccc(F)cc6F)C5)cc4)CC3)cc2)c1=O ; measure: MIC ; strain or isolate: 85-569 ; result: 0.125 µg/mL
COc1cc(/C=C2\COc3ccccc3C2=O)ccc1O ; measure: MIC ; strain or isolate: Farwania ; result: 25 µg/mL
COc1ccccc1-c1c(C#N)c(OC)nc2c1CSc1ccccc1-2 ; measure: MIC ; strain or isolate: Farwania ; result: 25 µg/mL
CCC(C)n1ncn(-c2ccc(N3CCN(c4ccc(OC[C@H]5CO[C@](Cn6cncn6)(c6ccc(Cl)cc6Cl)O5)cc4)CC3)cc2)c1=O ; measure: MIC50 ; strain or isolate: 42 isolates (HIV+) ; result: 0.06 µg/mL
Oc1ccccc1N=Cc1ccc(O)c(O)c1O ; measure: MIC99 ; strain or isolate: VM-MCMMPI ; result: 11.3 µg/mL
COc1ccccc1/C=C1\COc2ccccc2C1=O ; measure: MIC ; strain or isolate: Farwania ; result: 25 µg/mL
COc1nc2c(c(-c3ccc(C)cc3)c1C#N)CSc1ccccc1-2 ; measure: MIC ; strain or isolate: 93/V ; result: 12.5 µg/mL
O=C1/C(=C/c2ccc3c(c2)OCO3)COc2ccc(-c3ccccc3)cc21 ; measure: MIC ; strain or isolate: 93/V ; result: 50 µg/mL
O=C1c2c(O)ccc(O)c2C(=O)c2c(NCCNCCO)ccc(NCCNCCO)c21 ; measure: MIC ; strain or isolate: Clinical isolate (capsule-negative) ; result: 24.2 µM
Cc1nc(NCCCCNc2ccnc3cc(Cl)ccc23)nc(-c2ccccc2)c1C(=O)OC(C)C ; measure: MIC99 ; strain or isolate: ATCC 62066 ; result: 8 µg/mL
C=CC[C@@H]1/C=C(/C)C[C@H](C)C[C@H](OC)[C@H]2O[C@@](O)(C(=O)C(=O)N3CCCC[C@H]3C(=O)O[C@H](/C(C)=C/[C@@H]3CC[C@@H](O)[C@H](OC)C3)[C@H](C)[C@@H](O)CC1=O)[C@H](C)C[C@@H]2OC ; measure: MIC ; strain or isolate: H99 ; result: 0.19 µg/mL
Cn1nc(Cc2ccc(Cl)cc2)c2ccccc2c1=O ; measure: MIC ; strain or isolate: ATCC 32264 ; read by: broth dilution ; result: 7.8 µg/mL
Oc1ccccc1N=Cc1ccc2c(c1)OCO2 ; measure: MIC ; strain or isolate: C-3-1 ; read by: broth dilution ; result: 4 µg/mL
CN[C@H]1CC[C@@H](c2ccc(Cl)c(Cl)c2)c2ccccc21 ; measure: MIC90 ; strain or isolate: VPCI 87 ; read by: broth dilution ; result: 4 µg/mL

Again, the opening 7 rows:

SMILES | measure | strain or isolate | read by | result
Oc1ccccc1N=Cc1cccc(O)c1O | MIC | 27JF | broth dilution | 5.7 µg/mL
CC(C(=O)O)N1C(=O)CCSC1c1ccccc1 | EC50 |  | broth dilution | 23.7 µM
COC(=O)[C@H]1[C@@H]2C[C@@H](O[C@@H]3O[C@H](C)[C@@H](O)[C@H](N)[C@@H]3O)/C=C/C=C/C=C/C=C/C=C/C=C/C=C/[C@H](C)[C@@H](O)[C@H](C)[C@H](C)OC(=O)C[C@H](O)C[C@H](O)[C@@H](O)CC[C@H](O)C[C@H](O)C[C@](O)(C[C@@H]1O)O2 | MIC | NCPF 3379 |  | 0.98 µM
Cc1nc(NCCCCNc2ccnc3cc(Cl)ccc23)nc(-c2ccccc2[N+](=O)[O-])c1C(=O)OC(C)C | MIC99 | WP |  | 5.7 µg/mL
COc1ccc(-c2c(C#N)c(OC)nc3c2CSc2ccc(Cl)cc2-3)cc1OC | MIC | Farwania |  | 6 µg/mL
CC[C@@]1(O)C(=O)OCc2c1cc1n(c2=O)Cc2cc3c(CN(C)C)c(O)ccc3nc2-1 | MIC | Clinical isolate (capsule-negative) |  | >100 µM
COc1ccc2c(c1)C(=O)/C(=C/c1ccc3c(c1)OCO3)CO2 | MIC | Farwania |  | 12.5 µg/mL

MIC50, MIC90 and the like: level of inhibition, or share of isolates inhibited. Neighbouring rows are from separate reports. Blank or dashed fields: not listed here.